Data as given in US20150038408A1, “Polypeptides for treating and/or limiting influenza infection” (University of Washington, published 2015).

Molecular target: A/Vietnam/1203/2004 (H5N1) hemagglutinin ectodomain (Influenza A virus A/Vietnam/1203/2004 …)

B1: HB80.3 (Asp12Gly, Ala24Ser, Met26Thr, Asn36Lys, Delta54-95) (designed binder)
chain: MASTRGSGRPWGFSENLAFELALSFTNKDTPDRWAKVAQYVSGRTPEEVKKHYE
EC50 (read off the curve): ~10 nM
